Pooled drug test results. Numbers come from NIAID ChemDB, via PubChem.

Common to all: growth or infection tests; agent: Mycobacterium tuberculosis

MIC bound: limit read from a one-dose screen.

SMILES	read by	cells	strain or isolate	read-out	dose	result
O=c1c(Cc2ccccc2)c(O)cc2n1CCC2	-	-	H37Ra	MIC	-	>128 µg/mL
CC(=O)NNc1nc(C)c(C(=O)C=Cc2ccc(Cl)cc2)s1	resazurin	-	H37Rv	MIC bound	-	>6.25 µg/mL
CCOc1ccc2c(NN)cc(C)nc2c1	-	VERO	H37Rv	inhibition	12.5 µg/mL	98%
C/C(=N\NC(=O)Cc1nn(Cc2ccc(Br)cc2F)c(=O)c2ccccc12)c1ccc(C)cc1	-	-	Multidrug-resistant (MDR)	MIC	-	0.79 µM
CCCCCCCCS(=O)CC(=O)OC	-	-	H37Rv	MIC	-	>25 µg/mL
Cc1nc(-c2ccoc2)c2ccn([C@@H]3O[C@H](CO)C(O)C3O)c2n1	MTT	-	My 331/88	MIC	-	>250 µM
CCOc1ccc2nc(NC(=O)C(=O)C(C(=O)c3ccccc3F)C3OC(=O)c4ccccc43)sc2c1	resazurin	-	H37Rv	MIC bound	-	>6.25 µg/mL
Cc1ccc(C2C3=C(CCCC3=O)OC3=C2C(=O)CCC3)cc1	resazurin	-	H37Ra	MIC	-	≥0.4 µg/mL
CCOc1ccc2c(NN)ccnc2c1	-	VERO	H37Rv	inhibition	12.5 µg/mL	88%
CCCCCCCCS(=O)CC(=O)OCc1ccccc1	-	-	H37Rv	MIC	-	>25 µg/mL
C[C@@H]1CN(c2c(F)c(N)c3c(=O)c(C(=O)O)cn(C4CC4)c3c2F)C[C@H](C)N1	-	-	-	MIC90	-	0.5 µg/mL
Nc1nnc(N)n1NC(=O)C(=O)Nc1ccc([N+](=O)[O-])cc1	BACTEC	-	H37Rv	inhibition	12.5 µg/mL	-9%
CC[C@H]1OC(=O)[C@H](C)[C@@H](O[C@H]2C[C@@](C)(OC)[C@@H](O)[C@H](C)O2)[C@H](C)[C@@H](O[C@@H]2O[C@H](C)C[C@H](N(C)C)[C@H]2O)[C@](C)(OC)C[C@@H](C)C(=O)[C@H](C)[C@@H](O)[C@]1(C)O	-	-	90-0240 (drug-susceptible)	MIC	-	4 µg/mL
CC(C(=O)OCc1ccccc1)(c1ccco1)N1C(=O)OC(c2ccccc2)C1c1ccccc1	BACTEC	-	H37Rv	MIC bound	-	>12.5 µg/mL
CC1=C(O)C(C)(Cc2cccc(C(=O)c3ccccc3)c2)SC1=O	-	-	H37Rv	MIC50	-	50 µM
Cc1cc(=O)cc2sc3cc(Cl)ccc3nc1-2	BACTEC	-	H37Rv	MIC bound	-	≤12.5 µg/mL
O=Cc1c(-c2ccccc2)nc2sc(-c3cccs3)nn12	BACTEC	-	H37Rv	inhibition	6.25 µg/mL	<90%
CCN(CC)c1ccc(/C=N/Nc2cc(C)nc3ccc(C4CCCCC4)cc23)cc1	-	VERO	H37Rv	MIC	-	1.56 µg/mL
Brc1ccc(-c2cn3nc(-c4cccs4)sc3n2)cc1	BACTEC	-	H37Rv	inhibition	6.25 µg/mL	<90%
O=C(Cc1nn(Cc2ccc(Br)cc2F)c(=O)c2ccccc12)N/N=C/c1cccc(F)c1	-	-	Multidrug-resistant (MDR)	MIC	-	0.81 µM
CCCCc1c(O)c(-c2ccccc2)c2n(c1=O)CCC2	-	-	H37Ra	MIC	-	128 µg/mL
CCOc1ccc2c(N/N=C/c3c(OC)ccc4ccccc34)ccnc2c1	-	VERO	H37Rv	MIC	-	3.13 µg/mL
CCOc1nc(N)c(C(N)=O)cc1C#N	BACTEC	-	H37Rv	inhibition	12.5 µg/mL	11%
N/C(COc1ccc(Cl)cc1)=N/NC(=O)c1ccncc1	-	-	ATCC 35820 (streptomycin-resistant)	MIC	-	6.25 µg/mL
N[C@@H]1CONC1=O	-	-	90-0240 (drug-susceptible)	MIC	-	75 µg/mL
O=C(Cc1nn(Cc2ccc(Br)cc2F)c(=O)c2ccccc12)N/N=C/c1cccc(Br)c1	-	-	Multidrug-resistant (MDR)	MIC	-	0.72 µM
NNC(=O)c1ccncc1	-	-	90-0241 (drug-susceptible)	MIC	-	0.04 µg/mL
O=c1oc2ccc(Br)cc2cc1-c1cs/c(=N\N=C\c2ccc(Cl)cc2)n1Cc1ccccc1	-	-	H37Rv	MIC	-	>6.25 µg/mL
C/C(=N\NC(=O)Cc1nn(Cc2ccc(Br)cc2F)c(=O)c2ccccc12)c1ccc(F)cc1	-	-	Multidrug-resistant (MDR)	MIC	-	1.57 µM
COc1ccc(/C=N/N=c2\scc(-c3cc4cc(Br)ccc4oc3=O)n2Cc2ccccc2)cc1OC	-	-	H37Rv	MIC	-	>6.25 µg/mL
O=C(O)CCCCCCCCCCCCC1C=CCC1	GFP	-	H37Rv	MIC	-	9.82 µM
CC1=C(O)C(C)(CCC(C)C)SC1=O	-	-	H37Rv	MIC50	-	230 µM
CC(C)O/N=C/c1cc(NC(=S)OC(C)C)ccc1Cl	BACTEC	-	H37Rv	MIC	-	3.13 µg/mL
COc1ccc(/C=N/Nc2cc(C)nc3ccc(C4CCCCC4)cc23)c2ccccc12	-	VERO	H37Rv	MIC	-	1.56 µg/mL
NNC(=O)c1ccncc1	-	-	-	MIC90	-	>16 µg/mL
O=Cc1c(-c2ccccc2)nc2sc(-c3ccco3)nn12	BACTEC	-	H37Rv	inhibition	6.25 µg/mL	100%
CCN(CC)c1ccc(/C=N/Nc2ccnc3cc(OC)ccc23)cc1	-	VERO	H37Rv	inhibition	12.5 µg/mL	100%
OC[C@H]1O[C@@H](n2ccc3c(-c4ccoc4)nc(Cl)nc32)C(O)C1O	MTT	-	My 331/88	MIC	-	>250 µM
CCOC(=O)c1c(O)c(C)c(=O)n2c1CCC2	-	-	H37Ra	MIC	-	>256 µg/mL
O=C1CCCC2=C1C(c1cccc3ccccc13)C1=C(CCCC1=O)O2	resazurin	-	H37Ra	MIC	-	≥0.4 µg/mL
NC[C@H]1OB2OCCOC3C=CC(c4ccccc4)=C1C23	resazurin / fluorescence	-	H37Rv	MIC	-	>600 µM
O=C(Cc1nn(Cc2ccc(Br)cc2F)c(=O)c2ccccc12)N/N=C/c1ccc([N+](=O)[O-])cc1	-	-	Multidrug-resistant (MDR)	MIC	-	<0.09 µM
CC(C)=CCC/C(C)=C/CC/C(C)=C/CC1(C)SC(=O)C(C)=C1O	-	-	H37Rv	MIC50	-	23 µM
O=C1CCCC2=C1C(c1ccccn1)C1=C(CCCC1=O)O2	resazurin	-	H37Ra	MIC	-	≥0.8 µg/mL
CN[C@@H]1[C@H](O[C@H]2[C@H](O[C@H]3[C@H](O)[C@@H](O)[C@H](N=C(N)N)[C@@H](O)[C@@H]3N=C(N)N)O[C@@H](C)[C@]2(O)C=O)O[C@@H](CO)[C@H](O)[C@H]1O	-	-	2219	MIC	-	0.3 µg/mL
CSC(=S)NNC(C)c1nccc2ccccc12	-	-	RMP-R	MIC	-	6.4 µg/mL
Cc1nc(-c2ccccc2)c2ccn([C@@H]3O[C@H](CO)C(O)C3O)c2n1	MTT	-	My 331/88	MIC	-	>250 µM
O=c1oc2ccccc2cc1-c1cs/c(=N\N=C\c2ccc(Cl)c(Cl)c2)n1Cc1ccccc1	-	-	H37Rv	inhibition	6.25 µg/mL	<11%
O=c1c(Cc2ccccc2)c(O)c(-c2ccccc2)c2n1CCC2	-	-	H37Ra	MIC	-	128 µg/mL
c1ccc(-c2nc3sc(-c4ccco4)nn3c2CN2CCCC2)cc1	BACTEC	-	H37Rv	inhibition	6.25 µg/mL	<90%
O=C(N/N=C/c1ccccc1[N+](=O)[O-])c1cc(-c2ccc(Cl)cc2)n[nH]1	broth dilution	-	H37Rv	MIC	-	0.39 µg/mL
COc1ccc(C2C3=C(CCCC3=O)OC3=C2C(=O)CCC3)cc1	resazurin	-	H37Ra	MIC	-	≥1.6 µg/mL
CC[C@@H](CO)NCCN[C@@H](CC)CO	-	-	WH 51/02	MIC	-	1.25 µg/mL
C=C(C)[C@@H]1CC[C@@]2(C)[C@H]1[C@H]1CC[C@@H]3[C@@]4(C)CC[C@H](O)C(C)(C)[C@@H]4CC[C@@]3(C)[C@]1(C)C[C@@H]2O	BACTEC	-	H37Rv	inhibition	6.25 µg/mL	88%
COc1ccc(/C=N/N=c2\scc(-c3cc4ccccc4oc3=O)n2Cc2ccccc2)cc1	-	-	H37Rv	inhibition	6.25 µg/mL	<11%
O=c1oc2c(-c3ccccc3)c(=O)n3c(c2c(O)c1Cc1ccccc1)CCC3	-	-	H37Ra	MIC	-	256 µg/mL
Cc1nc(-c2cccc3c2oc2ccccc23)c2ccn([C@@H]3O[C@H](CO)C(O)C3O)c2n1	MTT	-	My 331/88	MIC	-	62.5 µM
CC[C@@H](CO)NCCN[C@@H](CC)CO	-	-	-	MIC90	-	8 µg/mL
Cc1ccc(/C=N/N=c2\scc(-c3cc4cc(Br)ccc4oc3=O)n2Cc2ccccc2)cc1	-	-	H37Rv	inhibition	6.25 µg/mL	<11%
CCCCCCCCCS(=O)CC(N)=O	-	-	H37Rv	MIC	-	6.25 µg/mL
COc1ccc(/C=N/Nc2cc(C)nc3cc(Cl)cc(Cl)c23)c2ccccc12	-	VERO	H37Rv	MIC	-	>12.5 µg/mL
OCCN(CC(O)C(O)CN(CCO)C(=S)S)C(=S)S	resazurin	-	H37Rv	inhibition	6.25 µg/mL	0%
O=C(NN1C(=O)[C@H](Cl)[C@H]1c1ccc(O)cc1)c1cc(-c2ccc(Cl)cc2)n[nH]1	broth dilution	-	H37Rv	MIC	-	1.1 µg/mL
CCOc1cc(/C=N/N=c2\scc(-c3cc4cc(Br)ccc4oc3=O)n2Cc2ccccc2)ccc1O	-	-	H37Rv	MIC	-	>6.25 µg/mL
O=C(Cc1nn(Cc2ccc(Br)cc2F)c(=O)c2ccccc12)N/N=C/c1c(Cl)cccc1Cl	-	-	Multidrug-resistant (MDR)	MIC	-	2.92 µM
CCOc1ccc2c(c1)n([O-])c1cc(Br)ccc1[n+]2=O	BACTEC	-	H37Rv	inhibition	12.5 µg/mL	100%
O=C1CCCC2=C1C(c1ccc(Cl)cc1)C1=C(CCCC1=O)O2	resazurin	-	H37Ra	MIC	-	≥0.4 µg/mL
CCOC(=O)CN1CC(C)(C)N(CC(=O)OCC)CC1(C)C	BACTEC	-	H37Rv	inhibition	12.8 µg/mL	15%
N#Cc1c(-c2ccccc2)nc2sc(-c3ccco3)nn12	BACTEC	-	H37Rv	inhibition	6.25 µg/mL	<90%
N/C(COc1ccc([N+](=O)[O-])cc1)=N/NC(=O)c1ccncc1	-	-	16 isolates	MIC90	-	12.5 µg/mL
OC[C@H]1O[C@@H](n2ccc3c(-c4cccc5c4oc4ccccc45)nc(Cl)nc32)C(O)C1O	MTT	-	My 331/88	MIC	-	>250 µM
CC1COc2c(N3CCN(C)CC3)c(F)cc3c(=O)c(C(=O)O)cn1c23	-	-	H37Rv	MIC	-	0.75 µg/mL
CC1(C)Cc2cc(O)c(-c3ccccc3)c(=O)n2C1	-	-	H37Ra	MIC	-	16 µg/mL
COc1ccc(-c2coc3c4c(c(CC=C(C)C)c(OC)c3c2=O)OC(C)(C)C=C4)cc1OC	BACTEC	-	H37Rv	MIC	-	≥12.5 µg/mL
O=C(NN1C(=O)CSC1c1ccccc1[N+](=O)[O-])c1cc(-c2ccc(Cl)cc2)n[nH]1	broth dilution	-	-	MIC	-	1.9 µg/mL
NNC(=O)c1ccncc1	-	-	WH 51/02	MIC	-	0.062 µg/mL
c1ccc(-c2nc3sc(-c4cccs4)nn3c2CN2CCCC2)cc1	BACTEC	-	H37Rv	inhibition	6.25 µg/mL	<90%
Cn1c2ccccc2c2nn3c(-c4ccccc4)nnc3nc21	resazurin	-	H37Rv	MIC bound	-	>6.25 µg/mL
Cc1ccccc1OC/C(N)=N\NC(=O)c1ccncc1	-	-	16 isolates	MIC90	-	50 µg/mL
C=C/C(C)=C/[C@@]1(C)SC(=O)C(C)=C1O	-	-	H37Rv	MIC50	-	56 µM
CN(C)C(=S)SCCOc1ccc(Cl)cc1Cl	BACTEC	-	H37Rv	inhibition	128 µg/mL	95%
O=C1CSC(c2c(-c3ccccc3)nc3sc(-c4cccs4)nn23)N1c1ccccc1	BACTEC	-	H37Rv	inhibition	6.25 µg/mL	<90%
Cc1c2ccncc2cc2c1sc1ccncc12	resazurin	-	H37Rv	MIC bound	-	<6.25 µg/mL
CCCCCCCCCCS(=O)CC(N)=O	-	-	H37Rv	MIC	-	>50 µg/mL
Cc1nc(N)nc2c1ccn2[C@@H]1O[C@H](CO)C(O)C1O	MTT	-	My 331/88	MIC	-	>250 µM
O=C(/C=C/c1ccccc1)c1c[nH]c2ccccc12	BACTEC	-	H37Rv	MIC bound	-	>6.25 µg/mL
O=c1cc(O)cc2n1CCC2	-	-	H37Ra	MIC	-	>256 µg/mL
O=C(c1ccccc1)C1C(=O)N(c2ccccc2)C(=O)N1c1ccccc1	BACTEC	-	H37Rv	inhibition	12.5 µg/mL	0%
CCc1cc(C(N)=S)ccn1	-	-	90-0145 (drug-susceptible)	MIC	-	0.25 µg/mL
NC(=O)C1=NOC(C(N)=O)C1[C@@H]1O[C@H](CO)[C@@H](O)[C@H]1O	BACTEC	-	H37Rv	inhibition	12.5 µg/mL	7%
OC[C@H]1O[C@@H](n2ccc3c(-c4ccccc4)nc(Cl)nc32)C(O)C1O	MTT	-	My 331/88	MIC	-	250 µM
C=C(Br)CN(CC(=C)Br)NC(C)=O	BACTEC	-	H37Rv	MIC bound	-	>12.5 µg/mL
Nc1nc(-c2cccs2)c2ccn([C@@H]3O[C@H](CO)C(O)C3O)c2n1	MTT	-	My 331/88	MIC	-	>250 µM

Percent inhibition refers to the dose given; in toxicity tests it is the harm to the cells. Blank or dashed fields: not listed here. Rows are shuffled and stem from different studies. MIC50, MIC90 and the like: level of inhibition, or share of isolates inhibited.